Measured values from several laboratories, pooled; numbers as filed in NIAID ChemDB.

All rows: whole-cell or culture tests; agent: HIV-1; measure: inhibition

Percent inhibition refers to the dose given; in toxicity tests it is the harm to the cells.

SMILES	cell line	read by	setting	strain or isolate	dose	result
Nc1ccn([C@@H]2O[C@H](CO)C[C@@H]2F)c(=O)n1	H9	antigen		IIIB	10 µM	89%
Cc1cn([C@H]2C[C@H](N=[N+]=[N-])[C@@H](CO)O2)c(=O)[nH]c1=O	U-937	virus yield		LAV-1	1 µM	0%
C[C@@H]1CC[C@H]2[C@@H](C)C(=O)O[C@@H]3OC4(C)CC[C@@H]1[C@]32OO4	PBMC	p24 / ELISA / antigen		NL4-3	10 µM	76%
CCCCCCCCCCCCCC(=O)OC[C@H](COP(=O)(O)OC[C@@H]1CC[C@H](n2cnc3c(=O)[nH]c(N)nc32)O1)OC(=O)CCCCCCCCCCCCC	CEM13 + CEM	ELISA		LAV-Bru	10 µM	99%
CO[C@@H]1[C@@H](O)[C@@H](O)[C@H](O)[C@H](O)[C@H]1n1cnc2c(N)ncnc21	MT-4	cytopathic effect / MTT		IIIB	10 µg/mL	29.4%
CCCCCCCCCCCCCC(=O)O[C@@H]1[C@@H](C)[C@@]2(O)[C@@H](C=C(CO)C[C@]3(O)C(=O)C(C)=C[C@@H]23)[C@@H]2C(C)(C)[C@]12OC(C)=O	CD4.401(H9-RF) + CD4	syncytia		RF	0.005 µg/mL	78%
Nc1ncnc2c1ncn2[C@H]1CC[C@@H](CO)O1	ATH8	cytopathic effect / trypan blue		IIIB	20 µM	100%
CCC(c1cc(=O)[nH]c(SC2CCCC2)n1)c1c(F)cccc1F	MT-4	p24		IIIB	0.3 µM	99.9%
CCCCCCCCCC(=O)O	H9	RT activity			100 µM	20%
CO[C@H]1[C@@H](O)[C@H](n2ccc(N)nc2=O)[C@@H](O)[C@H](O)[C@@H]1O.O=C(O)/C=C/C(=O)O	MT-4	cytopathic effect / MTT		IIIB	10 µg/mL	36.6%
Cc1cn([C@H]2C[C@H](N=[N+]=[N-])[C@@H](CO)O2)c(=O)[nH]c1=O	U-937	RT activity	14 d	LAV-Bru	25 µM	0%
Cc1ccnc2c1NC(=O)c1cccnc1N2C1CC1	Macrophage	p24		Ba-L-85	0.1 µM	63%
Nc1ccn([C@H]2CC[C@@H](CO)O2)c(=O)n1	CEM13 + CEM	ELISA		LAV-Bru	10 µM	95%
OO	PBMC	RT activity		BaL	10 µM	10%
Cc1c(Cc2c(F)cccc2F)nc(SC2CCCC2)[nH]c1=O	MT-4	p24		IIIB	0.15 µM	99.9%
Cc1cn([C@H]2C[C@H](N=[N+]=[N-])[C@@H](COP(=O)(O)OC[C@H]3OC(O)[C@@H](O)[C@@H](O)[C@@H]3O)O2)c(=O)[nH]c1=O	U-937	RT activity	14 d	LAV-Bru	5 µM	0%
COCCCCCCCCCCCC(=O)O	H9	RT activity			100 µM	90%
Nc1c(S(=O)(=O)O)cc2c3c(cc(S(=O)(=O)O)cc13)C(=O)N(NC(=O)N/N=C/c1cccc(C=O)c1)C2=O	MT-2	syncytia			40 µM	0%
COc1ccc(S(=O)(=O)N(CC(C)C)C[C@@H](O)[C@H](Cc2ccccc2)NC(=O)c2cccc(O)c2C)cc1	CEM			IIIB	0.059 µM	95%
Cc1cn([C@H]2C[C@@H](N=[N+]=[N-])C[C@@H](CO)O2)c(=O)[nH]c1=O	MT-4			IIIB	333 µM	0%
CCCCCCCCCCCCCCCCCC(=O)NCC(COP(=O)([O-])OCC[N+](C)(C)C)OCC	U1(HIV-1 (LAV)) + U1	plaque count / syncytia		LAV	1 µM	67%
Cc1cn([C@H]2C[C@H](N=[N+]=[N-])[C@@H](CO)O2)c(=O)[nH]c1=O	H9	RT activity			5 µM	95%
O=C(O)P(=O)(O)O	H9	p24 / antigen	4 d	IIIB	300 µM	100%
Cc1cn([C@H]2C[C@H](N=[N+]=[N-])[C@@H](CO)O2)c(=O)[nH]c1=O	ATH8	cytopathic effect / trypan blue		IIIB	1 µM	100%
COc1ccccc1CN[C@H]1C2CCN(CC2)[C@H]1C(c1ccccc1)c1ccccc1	Macrophage + Monocytes/macrophages	RT activity		89.6 R5X4 isolate	0.1 µM	24%
O=C1N(Cc2ccc(CO)cc2)[C@H](Cc2ccccc2)[C@H](O)[C@@H](O)[C@@H](Cc2ccccc2)N1Cc1ccc(CO)cc1	H9	virus yield		IIIB	0.14 µM	90%
Cc1cn([C@H]2C[C@@H](N=[N+]=[N-])[C@@H](CO)O2)c(=O)[nH]c1=O	Jurkat cells	luciferase	pseudotyped	NL4-3	711 µM	90%
Nc1nc(N)c2ncn([C@H]3CC[C@@H](CO)O3)c2n1	MT-2	cytopathic effect / trypan blue		IIIB	200 µM	77%
O=C(O)P(=O)(O)O	H9	cytopathic effect / MTT		IIIB	8 µM	60%
Cc1cn([C@H]2C[C@H](N=[N+]=[N-])[C@@H](COP(=O)(O)OC[C@H]3OC(O)[C@H](O)[C@@H](O)[C@@H]3O)O2)c(=O)[nH]c1=O	U-937	RT activity	11 d	LAV-Bru	5 µM	0%
Nc1ncnc2c1ncn2[C@H]1CC[C@@H](CO)O1	MT-4	ELISA		IIIB	1 µM	0%
Nc1nc2c(ncn2[C@H]2CC[C@@H](CO)O2)c(=O)[nH]1	MT-2	cytopathic effect / trypan blue		IIIB	50 µM	40%
CCCCCCCCCCCCCC(=O)OC[C@@H](COP(=O)(O)OC[C@@H]1CC[C@H](n2cnc3c(N)ncnc32)O1)OC(=O)CCCCCCCCCCCCC	CEM13 + CEM	ELISA		LAV-Bru	10 µM	90%
COc1ccc2cc1Oc1ccc(cc1)C[C@H]1c3c(cc4c(c3Oc3cc5c(cc3OC)CCN(C)[C@@H]5C2)OCO4)CCN1C	U1/HIV-1 (+PMA 10 ng/mL) + U1	p24	chronic infection		0.04 µg/mL	73.8%
Nc1nc(Br)c2ncn([C@H]3CC[C@@H](CO)O3)c2n1	ATH8	cytopathic effect / trypan blue		IIIB	20 µM	100%
CO[C@@H]1[C@@H](O)[C@@H](O)[C@H](O)[C@H](O)[C@H]1n1ccc(N)nc1=O.O=C(O)/C=C/C(=O)O	MT-4	cytopathic effect / MTT		IIIB	10 µg/mL	28.4%
Nc1nc2c(ncn2[C@@H]2C[C@H](CO)[C@H]2CO)c(=O)[nH]1	MOLT-4	p24		IIIB	75 µM	90%
[B-]P(=O)([O-])CC[C@@H]1C=C[C@H](n2cc(C)c(=O)[nH]c2=O)O1	MAGI	β-galactosidase		NL4.3 p24 antigen	400 µM	0%
CO[C@H]1[C@@H](O)[C@H](n2ccc(N)nc2=O)[C@@H](O)[C@H](O)[C@@H]1O	MT-4	cytopathic effect / MTT		IIIB	10 µg/mL	36.8%
Cc1cn([C@H]2C[C@H](N=[N+]=[N-])[C@@H](CO)O2)c(=O)[nH]c1=O	MT-4				10 µg/mL	6%
CC(C)(C)NC(=O)[C@@H]1CN(Cc2cccnc2)CCN1C[C@@H](O)C[C@@H](Cc1ccccc1)C(=O)N[C@H]1c2ccccc2C[C@H]1O	CEM + CEM-SS	RT activity	10 d		0.1 µM	100%
O=c1[nH]cnc2c1ncn2[C@H]1CC[C@@H](CO)O1	MT-2	cytopathic effect / trypan blue		IIIB	10 µM	95%
CC(C)[C@H](NC(=O)N(C)Cc1ccccn1)C(=O)N[C@@H](Cc1ccccc1)[C@H](O)[C@H](O)[C@H](Cc1ccccc1)NC(=O)[C@@H](NC(=O)N(C)Cc1ccccn1)C(C)C	MT-4	p24		NL4-3	1 µM	90%

A second listing of 4 rows from above:

SMILES | cell line | read by | setting | strain or isolate | dose | result
COc1ccc(S(=O)(=O)N(CC(C)C)C[C@@H](O)[C@H](Cc2ccccc2)NC(=O)c2cccc(O)c2C)cc1 | CEM |  |  | IIIB | 0.059 µM | 95%
CCC(c1cc(=O)[nH]c(SC2CCCC2)n1)c1c(F)cccc1F | MT-4 | p24 |  | IIIB | 0.3 µM | 99.9%
CO[C@@H]1[C@@H](O)[C@@H](O)[C@H](O)[C@H](O)[C@H]1n1cnc2c(N)ncnc21 | MT-4 | cytopathic effect / MTT |  | IIIB | 10 µg/mL | 29.4%
CO[C@H]1[C@@H](O)[C@H](n2ccc(N)nc2=O)[C@@H](O)[C@H](O)[C@@H]1O.O=C(O)/C=C/C(=O)O | MT-4 | cytopathic effect / MTT |  | IIIB | 10 µg/mL | 36.6%

Lines come from different laboratories, so protocols vary. An empty or dashed field is not shown.